For one compound, CC50, EC50 and IC50 results are on record in patent publication US11267825B2 (AICURIS GMBH & CO. KG, priority 2017, dated 2022).

The chains behind the UniProt entries cited, without tags or fusion partners.
UniProt P03146, whole entry: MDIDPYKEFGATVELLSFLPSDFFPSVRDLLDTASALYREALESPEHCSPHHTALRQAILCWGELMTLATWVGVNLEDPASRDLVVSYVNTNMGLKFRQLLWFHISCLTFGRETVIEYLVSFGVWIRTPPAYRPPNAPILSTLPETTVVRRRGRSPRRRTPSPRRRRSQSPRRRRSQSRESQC

pEC50, pIC50: −log10 of the molar value.

The test system of data set [1] is HepAD38 cells. The data set is described as follows: Cell viability assay (AlamarBlue) in HepAD38 cells. The following applies: HepAD38 cells in the presence of 0.3 μg/ml tetracycline, six days incubation.
For data set [2], the system named is HBV. Kind of data set: Determination of HBV DNA from the supernatants of HepAD38 cells (anti-HBV activity). Particulars: read-out: Cell Activity (EC50); HBV DNA in HepAD38 supernatant at day 6. The procedure:
Determination of HBV DNA from the Supernatants of HepAD38 Cells
The anti-HBV activity was analysed in the stable transfected cell line HepAD38, which has been described to secrete high levels of HBV virion particles (Ladner et al., 1997). In brief, HepAD38 cells were cultured at 37° C. at 5% CO2 and 95% humidity in 200 μl maintenance medium, which was Dulbecco's modified Eagle's medium/Nutrient Mixture F-12 (Gibco, Karlsruhe), 10% fetal bovine serum (PAN Biotech Aidenbach) supplemented with 50 μg/ml penicillin/streptomycin (Gibco, Karlsruhe), 2 mM L-glutamine (PAN Biotech, Aidenbach), 400 μg/ml G418 (AppliChem, Darmstadt) and 0.3 μg/ml tetracycline. Cells were subcultured once a week in a 1:5 ratio, but were usually not passaged more than ten times. For the assay 60,000 cells were seeded in maintenance medium without any tetracycline into each well of a 96-well plate and treated with serial half-log dilutions of test compound. […] EC50 values were calculated from relative copy numbers of HBV DNA. […] Viral load was quantitated against known standards using HBV plasmid DNA of pCH-9/3091 (Nassal et al., 1990, Cell 63: 1357-1363) and the LightCycler 480 SW 1.5 software (Roche Diagnostics, Mannheim) and EC50 values were calculated using non-linear regression with GraphPad Prism 6 (GraphPad Software Inc., La Jolla, USA).

Data set [3] concerns the target HBV core protein (UniProt P03146). Particulars: read-out: Assembly Activity (IC50); BODIPY-FL labelled core protein, assembly started with NaCl, read after 6 min.

With `Cc1cccc2cc(C(=O)N3CCc4nc(N)sc4C3)[nH]c12`, the CC50 in data set [1] is above 100 µM. Besides, the pEC50 in data set [2] was above 6.00. Further, the pIC50 in data set [3] is above 5.30.
